# Measured values from patent EP0018189B1 (priority 1979, dated 1980).
# Test system: tetanus toxoid
# Assay: Adsorption of tetanus toxoid on the adjuvant (toxoid left in supernatant)
# Conditions: 30 Lf/ml, pH 7.0, stirred 24 hours at room temperature
smiles,measurement,setting,value
CCCCCCCCCCCCCCCCCCOC(=O)[C@@H](N)Cc1ccc(O)cc1 [octadecyl tyrosine],tetanus toxoid in the supernatant after centrifuging,"Procedure A: ether solution of adjuvant (0.3 ml, 30 mg/ml) added to toxoid 10 ml",no detectable tetanus toxoid
same,tetanus toxoid in the supernatant,Procedure B: dry base (10 mg) added to toxoid 10 ml,no detectable tetanus toxoid
